The record followed here is patent US11229608B2 (priority 2019, dated 2022).

For the experiment, the system named is Candidatus Liberibacter asiaticus (CLas). The settings on record: trunk injection, infected Mosambi (Citrus sinensis), 2S albumin 330 ppm, Nano-ZnO 1,000 ppm alone or 330 ppm in combination, Zinc nitrate 165 ppm.

Where two headings read alike, the source gives them in different places.

For the compound `O=[N+]([O-])[O-].O=[N+]([O-])[O-].[Zn+2]` [Zinc nitrate], the “fold decrease of CLas titer” value (30 DAT) is recorded as 1 fold, the “fold decrease of CLas titer” value (60 DAT) amounted to 0 fold, the “fold decrease of CLas titer” value (90 DAT) is 0 fold and the “fold decrease of CLas titer” value (120 DAT) was 0.5 fold.
